According to patent publication US20260101892A1, “METHOD TO INHIBIT PROLIFERATION OF A PHYTOPATHOGEN ON PLANTS AND COMPOSITIONS USED FOR THIS PURPOSE” (CYSBIO APS, priority 2022, published 2026):

Tested on: downy mildew in grapevine (plasmopara viticola)
Experiment: Downy mildew in grapevine, controlled environment trial, foliar spray
Conditions: 1% zosteric acid formulation, foliar spray 200 L/ha, scored 17 days after application; standard 0.5 grams of copper; FIG. 1A

In the case of `O=C(O)/C=C/c1ccc(OS(=O)(=O)O)cc1` [zosteric acid], the “disease control of downy mildew compared with standard fungicide treatment” value is reported as “control the disease at levels similar to a standard fungicide treatment”.
